This data set concerns the molecule itself. Description: negative staining transmission electron microscopy.

B1: Hendra virus nucleocapsids (full-length nucleoprotein N, residues 1-532, assembled on bacterial RNA) (complex)
chain: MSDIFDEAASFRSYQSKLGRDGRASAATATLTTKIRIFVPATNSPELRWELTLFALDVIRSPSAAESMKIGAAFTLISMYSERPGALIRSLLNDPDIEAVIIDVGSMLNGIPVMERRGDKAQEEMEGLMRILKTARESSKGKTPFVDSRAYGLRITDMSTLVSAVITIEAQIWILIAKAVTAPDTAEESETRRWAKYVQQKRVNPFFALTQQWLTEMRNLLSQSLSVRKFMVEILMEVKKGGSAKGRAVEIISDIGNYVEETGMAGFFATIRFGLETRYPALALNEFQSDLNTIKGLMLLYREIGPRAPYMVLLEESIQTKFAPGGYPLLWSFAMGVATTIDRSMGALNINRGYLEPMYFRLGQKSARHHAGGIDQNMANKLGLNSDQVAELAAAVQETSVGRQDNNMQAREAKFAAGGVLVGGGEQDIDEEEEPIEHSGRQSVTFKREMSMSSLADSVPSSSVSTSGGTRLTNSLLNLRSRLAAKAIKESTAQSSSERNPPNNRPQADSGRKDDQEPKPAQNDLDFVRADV
As for B1, the binding result was “binds”.

For the origin of these results see publication PMC3784471 (PLoS Pathogens, 2013).
